Patent US20210061889A1

Molecular target: Ebola Zaire glycoprotein (GP) on Ebola virus-like particles (VLP) (Zaire Ebola virus) (UniProt Q05320)
Experiment: cell-based or functional assay

| Substance | fraction of mobile VLP in human airway mucus [%] | <Deff> of Ebola VLP in human airway mucus, reduction relative to no Ab [fold] | fraction of mobile Ebola VLP in human airway mucus [%] |
| --- | --- | --- | --- |
| ZMapp™ cocktail (c2G4, c116C6FR1 and c4G7 mixed at a 1:1:1 ratio) | 29 |  |  |
| c2G4 (antibody) |  | 28 | 27 |
| c4G7 (antibody) |  | 25 | 30 |
| c116C6FR1 (antibody) |  | 22 | 33 |
